Results from EP0230052B1, “Immunoamplifiers and related Compositions” (Gottlieb, Arthur A., priority 1985, dated 1987).

Test system: DH skin reaction to tetanus toxoid
Settings: in vivo

With Tyrosylglycylglycine [TGG] the “skin reaction without antigen” value was “No reaction”.
